Substitutions are numbered along the chain they refer to. For at least one entry, the source does not settle the construct or the ends of the probe. A weaker result is weaker than the reference pair of the same experiment. Tags and fusion partners may be left off the protein sequences shown.
Columns and labels:
MAB_4384 (F57L) = molecular target: T1, MAB_4384 (F57L) (UniProt B1MJU8); test: EMSA; details: severely impaired; EMSA: 280 nM fluorescein probe, 1X TAE, 1 h, room temperature, 6% native PAGE in 1X TAE; recombinant protein; label: 5' fluorescein
T1 sequence (looked up, limits assumed): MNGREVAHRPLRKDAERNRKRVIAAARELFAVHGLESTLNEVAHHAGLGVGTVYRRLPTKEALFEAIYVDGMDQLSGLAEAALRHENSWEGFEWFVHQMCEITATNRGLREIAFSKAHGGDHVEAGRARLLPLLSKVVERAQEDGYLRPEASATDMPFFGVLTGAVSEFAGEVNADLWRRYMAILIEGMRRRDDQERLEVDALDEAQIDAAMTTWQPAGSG

MAB_4384 (D14N) = molecular target: T2, MAB_4384 (D14N) (UniProt B1MJU8); test: EMSA; details: severely impaired; EMSA: 280 nM fluorescein probe, 1X TAE, 1 h, room temperature, 6% native PAGE in 1X TAE; recombinant protein; label: 5' fluorescein
T2 sequence (looked up, limits assumed): T1 sequence (looked up, limits assumed) with D14N, L57F

CACTTCGCCATAAGTGGATTGACTCTATCCACTTTTACCCATAGA (double strand) [Probe 1 (IRS5/L5 operator)]
binding result (MAB_4384 (F57L)): binds more weakly | binding result (MAB_4384 (D14N)): binds more weakly

Reference: paper PMC5895659, “Mechanistic and Structural Insights Into the Unique TetR-Dependent Regulation of a Drug Efflux Pump in Mycobacterium abscessus” (Frontiers in Microbiology, 2018)
